Measured data: PubChem BioAssay AID504761 (Drosophila RNAi Screening Center, 2011)
In all, the deposit lists about 22,000 reagents; below is a random part of those that have a named target and a result. Of all reagents, 116 (0.52%) are marked active. 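Calls depend on retest data that are not deposited; infection was ranked per plate without normalising between plates; the unit of the infection score is not given.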 Raw values vary from plate to plate and are shown uncorrected. Entries without a mark were called inactive. Names joined by + are all predicted targets of the reagent. Not given: the amount of reagent, the time to read-out.

Screen: 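Fly genes whose silencing reduces dengue virus type 2 infection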 (primary screen)
System: D.Mel-2 cells from Drosophila
Reagents: long dsRNA against Drosophila genes
Treatment: infection with dengue virus type 2; dose and infection time not stated
Measurement: 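Per well on two replicate plates, imaging gave the percent of cells positive for viral envelope protein, ranked by infection, and a nuclear count of cells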
Direction: infection score: higher = more virus-infected cells; cell count: higher = more cells in the well
Active means: 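Very low infection ranking in both replicate wells (chance probability at most 0.065), then a retest showing infection dropped 1.5-fold or more at p below 0.05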
Calls: active = confirmed: knock-down lowers infection; inactive = not picked or not confirmed

| target gene | amplicon | infection score, replicate 1 | infection score, replicate 2 | cell count, replicate 1 | cell count, replicate 2 |
| --- | --- | --- | --- | --- | --- |
| CG7406 | DRSC20042 | 2.93 | 1.4 | 4260 | 6003 |
| CG7406 | DRSC28709 | 9.1 | 16.4 | 5991 | 6062 |
| Vps52 (Vacuolar protein sorting 52) | DRSC03050 | 4.86 | 3.57 | 6272 | 6558 |
| snoRNA:Me28S-C3420b + RpS11 | DRSC07396 | 16.2 | 9.61 | 5392 | 6402 |
| Dhc1 (Dynein heavy chain 1) | DRSC16503 | 0.98 | 1.72 | 6246 | 6290 |
| yellow-f2 | DRSC16372 | – | 21 | 432 | 3330 |
| yellow-f2 | DRSC26523 | 7.7 | 7.98 | 5808 | 6339 |
| ApepP (Aminopeptidase P) | DRSC01866 | 1.64 | 6.04 | 6633 | 6239 |
| CG34309 | DRSC14838 | 20 | 14.7 | 6160 | 6415 |
| mei-217 + mei-218 | DRSC20349 | 0.64 | 3.65 | 6071 | 6324 |
| CG14615 | DRSC20627 | 9.78 | 1.83 | 5703 | 5842 |
| l(3)73Ah + CG32163 | DRSC21888 | 24.6 | 19.8 | 4187 | 2900 |
| Gr8a (Gustatory receptor 8a) | DRSC18043 | 3.52 | 5.91 | 6454 | 6651 |
| CG6414 | DRSC18401 | 1.01 | 6.59 | 6609 | 5633 |
| CG3638 | DRSC18533 | 3.09 | 0.5 | 6144 | 6033 |
| CG3638 | DRSC25349 | 2.44 | 6.59 | 6608 | 5977 |
| CG46298 | DRSC06222 | 2.6 | 12.2 | 6189 | 5030 |
| CG46298 | DRSC23884 | 2.94 | 5.06 | 6879 | 6263 |
| Pex12 (Peroxin 12) | DRSC00622 | 4.66 | 1.3 | 6348 | 6439 |
| Pex12 (Peroxin 12) | DRSC27149 | 3.46 | 11 | 6191 | 6824 |
| Use1 (Unconventional SNARE in the ER 1) | DRSC10180 | 0.89 | 4.71 | 6065 | 5818 |
| Use1 (Unconventional SNARE in the ER 1) | DRSC26772 | 3.95 | 7.11 | 6052 | 6328 |
| PpV (Protein phosphatase V) | DRSC18700 | 6.65 | 7.49 | 5235 | 4341 |
| PpV (Protein phosphatase V) | DRSC23307 | 8.71 | 13.4 | 5256 | 6155 |
| PpV (Protein phosphatase V) | DRSC29344 | 17.1 | 8.69 | 3776 | 3995 |
| CG2921 | DRSC04324 | 33.6 | 15.4 | 5660 | 5690 |
| CG2921 | DRSC24432 | 6.44 | 2.85 | 6382 | 6239 |
| CG33340 | DRSC14615 | 9.35 | 1.9 | 5252 | 6726 |
| CG33340 | DRSC26638 | 5.09 | 13.3 | 6618 | 6268 |
| Df31 (Decondensation factor 31) | DRSC03738 | 2.11 | 6.37 | 6016 | 6545 |
| Df31 (Decondensation factor 31) | DRSC22163 | 9.15 | 10.9 | 5736 | 5697 |
| stx (stuxnet) | DRSC23075 | 1.82 | 19.4 | 5718 | 2185 |
| stx (stuxnet) | DRSC29601 | 17.3 | 9.51 | 4042 | 4185 |

4 of these entries, set out differently.
CG33340 [DRSC26638]
- infection score, replicate 1: 5.09
- infection score, replicate 2: 13.3
- cell count, replicate 1: 6618
- cell count, replicate 2: 6268

Df31 (Decondensation factor 31) [DRSC03738]
- infection score, replicate 1: 2.11
- infection score, replicate 2: 6.37
- cell count, replicate 1: 6016
- cell count, replicate 2: 6545

Df31 (Decondensation factor 31) [DRSC22163]
- infection score, replicate 1: 9.15
- infection score, replicate 2: 10.9
- cell count, replicate 1: 5736
- cell count, replicate 2: 5697

stx (stuxnet) [DRSC23075]
- infection score, replicate 1: 1.82
- infection score, replicate 2: 19.4
- cell count, replicate 1: 5718
- cell count, replicate 2: 2185

Additional records:
| target gene | amplicon | infection score, replicate 1 | infection score, replicate 2 | cell count, replicate 1 | cell count, replicate 2 |
| --- | --- | --- | --- | --- | --- |
| CG13653 | DRSC14653 | 3.24 | 1.03 | 6549 | 6587 |
| Rsph9 (Radial spoke head protein 9) | DRSC01594 | 2.12 | 1.2 | 6189 | 6104 |
| Rsph9 (Radial spoke head protein 9) | DRSC25908 | 5.84 | 10 | 5980 | 5915 |
| CG18823 | DRSC18168 | 1.55 | 3.83 | 6395 | 6244 |
| ThrRS (Threonyl-tRNA synthetase) | DRSC02843 | 8.65 | 15.2 | 6092 | 5699 |
| mRpL27 (mitochondrial ribosomal protein L27) | DRSC22568 | 4.25 | 16 | 6352 | 5763 |
| Grp170 (Grp170 co-chaperone) | DRSC18524 | 3.14 | 2.39 | 6266 | 6603 |
| Grp170 (Grp170 co-chaperone) | DRSC24799 | 2.66 | 2.94 | 6015 | 6026 |
| glob3 (globin 3) | DRSC12261 | 1.13 (active) | 1.47 | 6291 | 5930 |
| Dp (DP transcription factor) | DRSC07402 | 22.6 | 4.94 | 2834 | 2791 |
| CG32694 | DRSC17844 | – | 8.76 | 361 | 1370 |
| CG32694 | DRSC17855 | 0.84 | 3.18 | 6631 | 6794 |
| CG32694 | DRSC22670 | 4.82 | 2.48 | 7057 | 6201 |
| CG32694 | DRSC25731 | 3.63 | 10.8 | 5848 | 5080 |
| mRpL28 (mitochondrial ribosomal protein L28) | DRSC02724 | 14.2 | 25.9 | 4341 | 4151 |
| CG12784 | DRSC14539 | 4.25 | 7.95 | 6325 | 6776 |
| CG32132 (retired record) | DRSC23128 | 0.96 | 11.4 | 6166 | 6550 |
| CG5160 | DRSC02821 | 11.7 | 9.88 | 5356 | 6339 |
| CG5160 | DRSC28456 | 14.7 | 3.45 | 5291 | 1015 |
| CG33127 | DRSC00011 | 6.87 | 3.51 | 6287 | 6118 |
| dap (dacapo) | DRSC07601 | 17.2 | 13.8 | 4330 | 6238 |
| BBS9 (Bardet-Biedl syndrome 9) | DRSC04257 | 13.8 | 14.5 | 6191 | 5697 |
| BBS9 (Bardet-Biedl syndrome 9) | DRSC27789 | 9.42 | 19.7 | 6867 | 5990 |
| CAH3 (Carbonic anhydrase 3) | DRSC17776 | 3.13 | 1.29 | 6451 | 6355 |
| Hr3 (Hormone receptor 3) | DRSC07441 | 11 | 12.8 | 6205 | 6228 |
